In the supplement of paper PMC9931576:
Human monoclonal antibodies against the spike receptor-binding domain (heavy:light variable regions). IC50 against pseudoviruses bearing the spike of naturally observed variants; lower = stronger; >10 µg/ml means not reached at the top dose. No active / inactive call. The stated detection limit is 0.0005 µg/ml; values near or below 0.001 µg/ml lie at the floor of the assay.

B1: BD-536 (protein)
chain 1: QLVESGGGLVKPGGSLRLSCAVSGFTLSGYSINWVRQAPGKGLEWVSFVSGSGSQKFYGDSVKGRFTVSRDNAKSSVYLQMNSLRVEDTAIYYCARDAGKSPLSYWYFDLWGRGTLVTVSS
chain 2: QIVLTQSPATLSLSPGERATLSCRASQTIGISLAWYQQKAGQPPRLLIYDAANRATGVPARFSGSGSGTDFTLTISSLQSEDFAVYYCQQRNNWPPKVTFGGGTKVEIK
B2: BD55-6546 (protein)
chain 1: VQLYESGPGLVKPSETLSLTCIVSGGYISSYYWTWIRQPPGKGLEWIGYIEYSGSTIYTPSLKSRVTISVDTSNNQFSLKMTSVTAADTAVYYCARGGGRYLDDPYYYGMDVWGQGTTVTVSS
chain 2: QSVLTQPPSVSGTPGQRVTISCSGSTSNIGSNAVNWYQQLPGTAPKLLIHSNNERPSGVTDRFSGSKSGTSASLAISGLQSGDEADYYCAAWDDDLNGREVFGGGTKLTVL
B3: BD55-6554 (protein)
chain 1: QVQLVQSGAEVKRPGASLTVSCKASGYSFANYGVNWVRQVPGQGLEWVGWISGYNGNTVYAQRLQDRVSMTTDTSTSTVYMKLKSLTSDDTAVYFCARDANYDSNGHFFRGGPFNWLDPWGQGTLVTVSS
chain 2: QSVLTQPPSASGTPGQRVTISCSGGHSNIGSNYVYWYQQFPGTAPKLLIYKNSQRPSGVPDRFSGSKSGTSASLAISGLRSEDEAEYYCAAWDDSPSGPWVFGGGTKLTVL
B4: BD55-6559 (protein)
chain 1: QLQLQESGPGLLKPSETLSLTCSVSGGSVSSGLYYWGWLRQPPGKGLDWIGTLDYTGATYYNPSLKSRLTISVDASNNQFSLRLMSVTATDTAVYYCARPRLISGYSGDWQGPTYHFDSWGQGTLVTV
chain 2: SDVLTQPPSVSVAPGETAWMTCGGNNVGGKSIHWYQQRPGQAPVLVVFDDSGRPSGIPERFSGSHSGNTATLTVSRVEAGDEADYYCQMWDSGTDLAVFGGGTKLTVL
B5: BD55-1268 (protein)
chain 1: EVQLLESGGGLVQPGGSLRLSCAASGFTFSTYAMSWVRQPPGEGLEWVSGIGGRGDSTYYADSVKGRFTISRDNSKNTMYLQMNSLRAEDTAVYYCATDGHITMIQPEYFQHWGLGTLVIVSS
chain 2: DIQMTQSPSSVSASVGDRVTITCRASQGIGTWLAWYQQKFGKAPKLLIYAASSLQSGVPSRFSGSGSGTDFTLTISSLQPEDFATYYCQQADSFPLTFGGGTKVEI
B6: BD55-6566 (protein)
chain 1: QVQLQESGPGLVKPSQTLSLTCTVSGGSITTGGHYWTWIRQHPGKGLEWIGYIDYSGSTYYNPSLQSRLIMSVDTSKNQFSLNLNSVTAADSAVYYCARDIRTVVGFYYMDVWGTGTTVTVSS
chain 2: DIQMTQSPSSLSASVGDRVTITCRASQNFTLYLNWYQQRPGMAPKVLIYAASTLQRGVPSRFSGSESGTDFTLTIASLQPEDFATYFCQQTYSTPWTFGQGTKVE

target: SARS-CoV-2 Omicron BA.1 spike pseudovirus; assay: pseudovirus neutralization IC50; higher = weaker neutralization
Description: (§1)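 Single-round VSV luciferase pseudovirus mixed with antibody dilutions for 1 h and put on Huh-7 cells for about a day; IC50 from the dose curve.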

Binder | pseudovirus neutralization IC50
B1 | > 10 µg/mL
B2 | > 10 µg/mL
B3 | > 10 µg/mL
B4 | > 10 µg/mL
B5 | 0.0217 µg/mL
B6 | > 10 µg/mL

target: SARS-CoV-2 Omicron BA.2 spike pseudovirus; assay: as above
Description: as §1

Binder | pseudovirus neutralization IC50
B1 | > 10 µg/mL
B2 | > 10 µg/mL
B3 | > 10 µg/mL
B4 | > 10 µg/mL
B5 | 0.0256 µg/mL
B6 | > 10 µg/mL

target: SARS-CoV-2 Omicron BA.2.75 spike pseudovirus; assay: as above
Description: as §1

Binder | pseudovirus neutralization IC50
B1 | > 10 µg/mL
B2 | > 10 µg/mL
B3 | > 10 µg/mL
B4 | > 10 µg/mL
B5 | 0.00815 µg/mL
B6 | > 10 µg/mL

target: SARS-CoV-2 Omicron BA.5 spike pseudovirus; assay: as above
Description: as §1

Binder | pseudovirus neutralization IC50
B1 | > 10 µg/mL
B2 | > 10 µg/mL
B3 | > 10 µg/mL
B4 | > 10 µg/mL
B5 | 1.54 µg/mL
B6 | > 10 µg/mL

target: SARS-CoV-2 Omicron BQ.1.1 spike pseudovirus; assay: as above
Description: as §1

Binder | pseudovirus neutralization IC50
B1 | > 10 µg/mL
B2 | > 10 µg/mL
B3 | > 10 µg/mL
B4 | > 10 µg/mL
B5 | > 10 µg/mL
B6 | > 10 µg/mL

target: SARS-CoV-2 Omicron XBB spike pseudovirus; assay: as above
Description: as §1

Binder | pseudovirus neutralization IC50
B1 | > 10 µg/mL
B2 | > 10 µg/mL
B3 | > 10 µg/mL
B4 | > 10 µg/mL
B5 | > 10 µg/mL
B6 | > 10 µg/mL

target: SARS-CoV-2 early D614G spike pseudovirus; assay: as above
Description: as §1

Binder | pseudovirus neutralization IC50
B1 | 2.6 µg/mL
B2 | > 10 µg/mL
B3 | > 10 µg/mL
B4 | 8.74 µg/mL
B5 | 0.00185 µg/mL
B6 | > 10 µg/mL
